Record: PubChem BioAssay AID1259414 (Drosophila RNAi Screening Center, 2018)
Assay: 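Genome-wide screen for host control of endosymbiont load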 (primary screen). System: Drosophila JW18 cells infected with Wolbachia. Knock-down reagent: long dsRNA against Drosophila genes, 0.25 µg dsRNA per well of a 384-well plate. Time to read-out: 5 days. Treatment: cells persistently infected with Wolbachia before knock-down; no added drug. Detection: 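Automated imaging of bacterial rRNA staining divided by host cell count, reported as plate-normalised robust z-score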. Scale: Wolbachia per cell robust z: higher = more Wolbachia per host cell than the plate typical. Rule for the call: 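Hit when robust z is 1.5 or more, or -1.5 or less, in at least two of three replicates; excludes dsRNAs with several or no targets, genes not expressed in JW18 and well A1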.
The screen tested about 24,000 reagents; this is a random part of those with a known target gene and a result. Of all reagents, about 1,210 (5%) got an active call. 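Inactive calls also include excluded dsRNAs with several or no targets, genes unexpressed in JW18, and well A1, regardless of score.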 Reagents against one gene are numbered here.

Gene	dsRNA no.	Wolbachia per cell robust z, rep 1	Wolbachia per cell robust z, rep 2	Wolbachia per cell robust z, rep 3	activity call
Rcd4 (Reduction in Cnn dots 4)	1	-5.22	0.776	0.676	inactive
mRpS14 (mitochondrial ribosomal protein S14)	1	0.28	0.156	0.675	inactive
CG4036	1	-0.647	0.00873	-0.775	inactive
NC2alpha (Negative Cofactor 2alpha)	1	-0.218	-0.323	0.262	inactive
NC2alpha (Negative Cofactor 2alpha)	2	-0.0107	0.593	0.0992	inactive
CG14626	1	0.492	-1.39	-1.39	inactive
CG14626	2	-0.584	-0.24	-0.104	inactive
Gapdh2 (Glyceraldehyde 3 phosphate dehydrogenase 2)	1	1.44	0.63	1.1	inactive
Gapdh2 (Glyceraldehyde 3 phosphate dehydrogenase 2)	2	0.349	0.0299	0.207	inactive
CG3746	1	0.362	0.319	-5.13	inactive
CG3746	2	-0.248	-1.42	-1.67	inactive
wdn (wings down)	1	-8.68	0.199	0.307	inactive
wdn (wings down)	2	1.49	0.84	1.27	inactive
Ir87a (Ionotropic receptor 87a)	1	-0.825	-5.87	-1.91	inactive
Ir87a (Ionotropic receptor 87a)	2	-0.825	-1.85	-0.791	inactive

Quoted from above, 2 entries:
Gene	dsRNA no.	Wolbachia per cell robust z, rep 1	Wolbachia per cell robust z, rep 2	Wolbachia per cell robust z, rep 3	activity call
NC2alpha (Negative Cofactor 2alpha)	2	-0.0107	0.593	0.0992	inactive
CG14626	1	0.492	-1.39	-1.39	inactive

More reagents follow:
Gene	dsRNA no.	Wolbachia per cell robust z, rep 1	Wolbachia per cell robust z, rep 2	Wolbachia per cell robust z, rep 3	activity call
jumu (jumeau)	1	1.29	1.03	0.657	inactive
jumu (jumeau)	2	1.92	0.955	0.76	inactive
CG8159	1	0.23	1.1	0.175	inactive
CG8159	2	0.333	-1.34	0.0953	inactive
ND-75 (NADH dehydrogenase (ubiquinone) 75 kDa subunit)	1	1.14	-0.44	0.316	inactive
CG15247	1	-1.11	0.381	-0.697	inactive
CG15247	2	1.23	-0.493	1.87	inactive
CG13385	1	0.115	-2.29	-3.67	inactive
CG7300	1	-0.0203	0.494	-0.131	inactive
CG7300	2	1.68	-0.629	-0.42	inactive
CG31689	1	-0.265	-0.11	-0.395	inactive
CG33494	1	0.0877	-0.327	-1.26	inactive
CG17652	1	0.505	-2.09	0.496	inactive
